Test results as given in paper PMC2928817 (PLoS Pathogens, 2010).

How the values were obtained:
Format in all cases: cell-based, 2009 pandemic influenza A (H1N1) virus
Conditions in all cases: MOI 0.0001, 10 µM added 1 h pi, titers 8-48 h pi
A/Osaka/180/2009 (O180r) = assay: In vitro growth kinetics in MDCK cells, O180r
[1] = tested on: A/Vietnam/HCM9727/2009 (VN9727s); assay: In vitro growth kinetics in MDCK cells, VN9727s
[2] = tested on: A/Vietnam/HN32060/2009 (VN32060r); assay: In vitro growth kinetics in MDCK cells, VN32060r
A/Osaka/164/2009 (O164s) = assay: In vitro growth kinetics in MDCK cells, O164s

[H]/N=C(\N)N[C@H]1C=C(C(=O)O)O[C@@H]([C@H](OC)[C@H](O)CO)[C@@H]1NC(C)=O
inhibited the replication: growth of O180r in the presence of NA inhibitor (A/Osaka/180/2009 (O180r)) | growth of VN9727s in the presence of NA inhibitor [1] | growth of VN32060r in the presence of NA inhibitor [2] | growth of O164s in the presence of NA inhibitor (A/Osaka/164/2009 (O164s))
